In PubChem BioAssay AID2472 (National Center for Advancing Translational Sciences (NCATS), 2010):
The entries are a selection whose mix differs from that of the whole data set. Active and inactive are the calls of the source. Rule as the data show it: active = activity change below about -30%; inactive = the rest, inconclusive results apart.
% is scaled to controls: 0 for no effect and ±100 for the full control effect.

Assay: qHTS Assay for Inhibitors of Fructose-1,6-bisphosphate Aldolase from Giardia Lamblia: Coupling assay counterscreen
Conditions: coupling enzyme system counterscreen, AmpLite Red fluorescence; at 58.2 µM (top of the series)
Excerpt: MLPCN Grant: MH085699-01 Assay Provider: Osnat Herzberg, University of Maryland NCGC Assay Overview: The objective of this project is to obtain compounds that inhibit Giardia lamblia growth. G. lamblia is a human pathogen which afflicts impoverished nations; it is the most common cause of outbreaks of diarrhea in the United States. During the course of our study of potential drug targets in Giardia, we have identified the Class II (Zn2+ functions in electrophilic catalysis) fructose-1,6-bisphosphate aldolase (FBPA) as an excellent candidate for drug targeting. FBPA is a key glycolytic pathway enzyme, essential for G. lamblia survival. The human FBPA belongs to the Class I aldolases, which have a different substrate binding site structure and a radically different catalytic mechanism (employing a lysine-Schiff base intermediate). Therefore, affinity-based or mechanism-based inhibitors of the Giardia FBPA are expected not to interfere with the catalytic function of the human FBPA. A glyceraldehyde-3-phosphate dehydrogenase/triose phosphate isomerase/NAD/arsenate coupled assay was adapted to the 1536-well HTP format for use in the primary screen. This was done by coupling it to a diaphorase/resazurin/resorufin reaction that can be monitored by fluorescence (excitation, 544 nm; emission, 590 nm). Compounds identified in this screen will be further evaluated by coupling the […]/triose phosphate isomerase/NADH assay to a phenazine methosulfate/tetranitroblue tetrazolium color reaction. False positives due to the dehydrogenases and diaphorase inhibition will be eliminated, and selectivity assay will triage inhibitors of mammalian triose phosphate isomerase and the Class I FBPA. G. lamblia FBPA inhibitors identified by the in vitro analyses will be examined for growth inhibition of Giardia trophozoites, and for cytotoxicity in human cells. This assay specifically addresses whether activity observed in the primary screen (AID 2451) is related to inhibition of the coupling assay used, as opposed to inhibition of aldolase. Actives in this assay are considered inconclusive for activity against aldolase.
NCGC Assay Protocol: Step,Parameter,Value,Description 1,Coupling enzyme reagent,2 uL,glyceraldehyde-3-phosphate 2,Compound,23 nL,3.68 nM-57.5 uM final concentration 3,Time,10 min,RT Incubation 4,Substrate/detection Reagent,2 uL,Substrate + enzyme coupling system + AmpLite Red kit 5,Time,20 min,RT Incubation 6,Detector,525 nm/598 nm (Fluorescence),ViewLux Fluorescence Read (Read 1) Notes: 1,Medium-binding black solid-bottom Kalypsys plates. FRD or Kalypsys dispenser. 2,Compound Library (10 mM ,1:5 dilution). Pin-transferred for a [final] range of 3.68 nM-57.5 uM. 3,RT incubation 4,FRD or Kalypsys dispenser, 2 uL of reaction mixture. Bottle kept at 4C and covered in foil to protect from light. 5,RT incubation 6,ViewLux Protocol 1194; Excitation filter wheel A (525/20 Pol; BODIPY TMR FP), Emission filter wheel B (598/25 S; BODIPY TMR FP S). Keywords: Fructose-bisphosphate aldolase, FBPA , Giardia lamblia , Giardia, HTS, Inhibitors
For `O=C(NCC1(N2CCCCC2)CCCCC1)c1cccc([N+](=O)[O-])c1`, the activity change, negative = inhibition was inactive: -0.817%.
For `N#CC1(Nc2ccccc2)CCN(CCc2ccccc2)CC1`, the activity change, negative = inhibition was inactive: 2.19%.
In the case of `CCN1CCC(Nc2ccc(Cl)cc2)CC1`, the activity change, negative = inhibition is reported as inactive: -1.52%.
For `O=C(NCC1(N2CCCCC2)CCCCC1)c1cccc(C(F)(F)F)c1`, the activity change, negative = inhibition was inactive: -0.226%.
For `O=[N+]([O-])c1cc([N+](=O)[O-])c(NCC2CCS(=O)(=O)C2)c([N+](=O)[O-])c1` (centres undefined), the activity change, negative = inhibition was inactive: -15.7%.
With `CN1CCN(CCOC(=O)C(O)(c2ccccc2)c2ccccc2)CC1` the activity change, negative = inhibition was inactive: 1.85%.
With `COc1ccc(NC2CCN(C(=O)OC(C)(C)C)CC2)cc1` the activity change, negative = inhibition was inactive: -7.45%.
For `COc1cc(C(=O)NCC2(N3CCCCC3)CCCCC2)ccc1OC(F)F`, the activity change, negative = inhibition was inactive: 3.58%.
With `O=C(NCC1(N2CCOCC2)CCCCC1)c1cc(=O)[nH]c2ccccc12` the activity change, negative = inhibition was inactive: 0.414%.
With `CC(C)(C)OC(=O)N1CCC(N(C(=O)c2ccccc2)c2ccc(Cl)cc2)CC1` the activity change, negative = inhibition was inactive: -1.56%.
In the case of `N#Cc1ccc(C(=O)NCC2(N3CCCCC3)CCCCC2)cc1`, the activity change, negative = inhibition is reported as inactive: 0.729%.
In the case of `CCOC(=O)C(CC)C1=NC(C)(C)Cc2ccccc21.O=[N+]([O-])c1cc([N+](=O)[O-])c(O)c([N+](=O)[O-])c1` (centres undefined), the activity change, negative = inhibition is reported as inactive: 11.6%.
For `CCCN1CCC(Nc2cc(OC)cc(OC)c2)CC1`, the activity change, negative = inhibition was inactive: -14%.
In the case of `c1ccc(CN2CCC(Nc3ccccc3)CC2)cc1`, the activity change, negative = inhibition is reported as inactive: 1.34%.
With `CN(C)C1(CNC(=O)c2cccc(C#N)c2)CCCCC1` the activity change, negative = inhibition was inactive: 1.75%.
For `COc1ccc(C(=O)NCC2(N3CCOCC3)CCCCC2)cc1OC`, the activity change, negative = inhibition was inactive: -1.58%.
In the case of `N/C(=N\O)c1c(N)no[n+]1[O-]`, the activity change, negative = inhibition is reported as inactive: 2.19%.
With `CCOC(=O)N1CCC(Nc2ccc(C)cc2)CC1` the activity change, negative = inhibition was inactive: 1.06%.
In the case of `O=C(O)c1cccc(Nc2c([N+](=O)[O-])cc([N+](=O)[O-])cc2[N+](=O)[O-])c1`, the activity change, negative = inhibition is reported as inactive: 12.6%.
In the case of `O=C(OC1CN2CCC1CC2)C1c2ccccc2C=Cc2ccccc21` (centres undefined), the activity change, negative = inhibition is reported as inactive: -0.752%.
In the case of `CN1CCC(Nc2ccc(F)c(Cl)c2)CC1`, the activity change, negative = inhibition is reported as inactive: 0.744%.
With `CCOc1ncccc1C(=O)NCC1(N2CCOCC2)CCCCC1` the activity change, negative = inhibition was inactive: 3.76%.
With `CCCOc1ccc(C(=O)NCC2(N(C)C)CCCCC2)cc1` the activity change, negative = inhibition was inactive: 0.176%.
With `O=C(O)C1(Nc2ccccc2)CCN(Cc2ccccc2)CC1` the activity change, negative = inhibition was inactive: -0.629%.
In the case of `CC(C)(C)OC(=O)N1CCC(Nc2ccccc2)CC1`, the activity change, negative = inhibition is reported as inactive: -0.0558%.
In the case of `CCC(CO)(C(=O)OC1CN2CCC1CC2)c1ccccc1` (centres undefined), the activity change, negative = inhibition is reported as inactive: 1.59%.
With `COc1cc(OC)cc(C(=O)NCC2(N3CCOCC3)CCCCC2)c1` the activity change, negative = inhibition was inactive: 0.74%.
For `COc1cccc(C(=O)N(c2cc(C)cc(C)c2)C2CCN(C(=O)OC(C)(C)C)CC2)c1`, the activity change, negative = inhibition was inactive: -0.311%.
With `CCCOc1ccc(C)cc1CN(CCCl)CCCl` the activity change, negative = inhibition was inactive: 0.315%.
For `CN1CCC(Nc2ccc(Cl)cc2)CC1`, the activity change, negative = inhibition was inactive: 1.28%.
For `COc1cc(OC)cc(C(=O)NCC2(N3CCCCC3)CCCCC2)c1`, the activity change, negative = inhibition was inactive: 1.58%.
For `Fc1ccccc1NC1CCN(Cc2ccccc2)CC1`, the activity change, negative = inhibition was inactive: 0.236%.
With `CCN1CCC(Nc2cccc(F)c2)CC1` the activity change, negative = inhibition was inactive: -2.37%.
In the case of `CN(C)c1ccc(C(=O)NCC2(N3CCCCC3)CCCCC2)cc1`, the activity change, negative = inhibition is reported as inactive: 1.24%.
